Measured values from several laboratories, pooled; numbers as filed in NIAID ChemDB.

Shared fields: growth or infection tests; species: Mycobacterium tuberculosis

MIC bound: limit read from a one-dose screen. Percent inhibition refers to the dose given; in toxicity tests it is the harm to the cells. Two numbers with a dash give a range or band. MIC50, MIC90 and the like: level of inhibition, or share of isolates inhibited. Blank or dashed fields: not listed here. ECn is the concentration giving n% inhibition of infection, replication or growth. Lines come from different laboratories, so protocols vary.

SMILES | dose | read-out | method | setting | cells | strain or isolate | value
Cc1c(C(=N)N)oc2ccccc12.Cl | 12.5 µg/mL | inhibition | BACTEC | - | - | H37Rv | 4%
CC(=O)Nc1ccc(/C=N/NC(N)=S)cc1F | - | MIC | - | - | - | Rifampicin-resistant | ≤0.1 µg/mL
CC(C)N=c1cc2n(-c3ccc(Cl)cc3)c3ccccc3nc-2cc1Nc1ccc(Cl)cc1 | - | MIC | - | multidrug-resistant | - | 2230 | 2 µg/mL
CO[C@H]1/C=C/O[C@@]2(C)Oc3c(C)c(O)c4c(=O)c(c5oc6cc(N7CCN(CC(C)C)CC7)cc(=O)c6nc5c4c3=C2O)NC(=O)/C(C)=C\C=C\[C@H](C)[C@H](O)[C@@H](C)[C@@H](O)[C@@H](C)[C@H](OC(C)=O)[C@@H]1C | 5 µg/mL | inhibition | - | inside macrophages | - | Kurono | 95.4%
Cc1cc(NN)c2ccc(Cl)cc2n1 | - | MIC | - | - | VERO | H37Rv | 12.5 µg/mL
CCOC(=O)Nc1cc(NC(C)CCCN(CC)CC)c2nc(-c3ccc(Cl)cc3)c(-c3ccc(Cl)cc3)nc2n1 | - | EC50 | - | - | - | H37Rv | <12.5 µg/mL
COc1cccc2c(NN)cc(C)nc12 | - | MIC | - | - | VERO | H37Rv | >12.5 µg/mL
O=C1OCc2cc(N3CCN(C(=O)c4cccc(Cl)c4)CC3)ccc21 | - | MIC90 | turbidity | - | - | Wild type without biotin | >50 µM
COc1ccc2nc(-c3ccccc3)cc(NN)c2c1 | - | MIC | - | - | VERO | H37Rv | 6.25 µg/mL
OC(C1=Nc2cccc3cccc(c23)N1)c1ccccc1 | 128 µg/mL | inhibition | BACTEC | - | - | H37Rv | 98%
CC(C)n1c(-c2ccccc2)cs/c1=N\NC(=O)COc1cnccn1 | - | MIC | - | - | - | H37Rv | 18 µg/mL
C/C=C1/C(=O)O[C@]23C=C[C@@H]4C(C(=O)OC)=CO[C@H](O[C@@H]12)[C@@H]43 | - | MBC | MTT | - | - | MDR3 clinical isolate | 2.9 µg/mL
CC(=O)c1ccc(N2CCN(C(=O)c3cncc(Cl)c3)CC2)cc1 | - | MIC50 | turbidity | - | - | BioA underexpression strain | >50 µM
Cc1ccc(C(=O)/C=C/c2ccccc2)c(F)c1 | - | MIC | MTT | - | - | H37Rv | 32 µg/mL
O=S(=O)(OC1CCC2CCC1O2)c1ccc(Br)cc1 | - | MIC bound | BACTEC | - | - | H37Rv | >12.5 µg/mL
CC(=O)Nc1ccc(OCC(=O)NN2C(=O)C(C)SC2c2ccc(O)cc2)cc1 | - | EC50 | - | - | - | H37Rv | >12.5 µg/mL
Nc1ncnc2c1cnn2COC[C@@H](O)CO | 12.5 µg/mL | inhibition | BACTEC | - | - | H37Rv | 0%
Cc1ccc(C(=O)/C=C/c2ccccc2)cc1 | - | MIC | MTT | 21 d | - | H37Rv | 32 µg/mL
CCCCn1c(-c2ccc(Cl)cc2)cs/c1=N\NC(=O)COc1cnccn1 | - | MIC | - | - | - | H37Rv | 13 µg/mL
CSc1ncnc2c1cnn2Cc1cnnn1COC[C@H](O)CO | 12.5 µg/mL | inhibition | BACTEC | - | - | H37Rv | 0%
COc1ccc2c(N/N=C/c3c(OC)ccc4ccccc34)cc(C)nc2c1 | - | MIC | - | - | VERO | H37Rv | 3.13 µg/mL
CC[C@@H](CO)NCCN[C@@H](CC)CO | - | MIC | - | - | - | 90-0233 (isoniazid streptomycin-resistant) | 1 µg/mL
Cc1ccn2c(C(=O)NCc3ccc(N4CCN(c5ccc(C(F)(F)F)cc5)CC4)c(F)c3)c(C)nc2c1 | - | MIC90 | resazurin | - | - | H37Rv | <2 µM
COC(=O)C1C(O)C(C)C(OC(C)=O)C(C)/C=C\C=C(/C)C(=O)Nc2c(C)c(OC(C)=O)c3c(c2O)C(=O)C(C)=C2OCOC(=C23)/C(C)=C/C(C)(O)C(O)C(C)C1O | - | MIC | - | - | - | RMP-R | >12.5 µg/mL
NC[C@@H]1O[C@H](O[C@H]2[C@@H](O)[C@H](O[C@@H]3[C@@H](O)[C@H](N)C[C@H](N)[C@H]3O[C@H]3O[C@H](CO)[C@@H](O)C[C@H]3N)O[C@@H]2CO)[C@H](N)[C@@H](O)[C@@H]1O[C@H]1O[C@H](CO)[C@@H](O)[C@H](O)[C@@H]1O | - | EC50 | - | - | - | H37Rv (isoniazid-resistant) | 25–50 µg/mL
C[N+](C)(C)NP(=O)(N[N+](C)(C)C)c1ccccc1 | 6.25 µg/mL | inhibition | BACTEC | - | - | H37Rv | 0%
OC[C@H](O)COCn1ncc2c(SCc3ccccc3)ncnc21 | - | EC50 | BACTEC | - | - | H37Rv | >12.5 µg/mL
O=C(c1cccc(Cl)c1)N1CCN(c2ccc(-c3ccccn3)cc2)CC1 | - | MIC50 | turbidity | - | - | Wild type without biotin | >50 µM
COc1ccc(/C=N/Nc2ccnc3ccccc23)c2ccccc12 | - | MIC | - | - | VERO | H37Rv | 3.13 µg/mL
O=C(/C=C/c1ccccc1)c1ccc(O)cc1 | - | MIC | resazurin | 7 d | - | H37Rv | 32 µg/mL
O=C(O)/C=C/c1ccccc1 | - | MIC | - | - | - | 90-0216 (DRUG-SUS) | 200 µg/mL
CCc1nc2sc(C)cn2c1C(=O)NCc1ccc2c(c1)CCO2 | - | MIC90 | resazurin | - | - | H37Rv | <2 µM
COC(=O)c1cc(F)c(NC(C)=O)cc1O | - | MIC | - | - | - | - | >12.5 µg/mL
CC(C)Cn1c(-c2ccc(F)cc2)cs/c1=N\NC(=O)COc1cnccn1 | - | MIC | - | - | - | H37Rv | 13 µg/mL
C#CCn1ncc2c(Cc3ccccc3)ncnc21 | - | EC50 | BACTEC | - | - | H37Rv | <12.5 µg/mL
CCN(CC)c1ccc2nc3c4ccccc4c(=NC(=O)c4ccccc4-c4c5ccc(N(CC)CC)cc5[o+]c5cc(N(CC)CC)ccc45)cc-3oc2c1.[Cl-] | - | MIC | - | - | VERO | H37Rv | 1.6 µg/mL
CO[C@H]1/C=C/O[C@@]2(C)Oc3c(C)c(O)c4c(O)c(c5c(c4c3C2=O)NC2(CCN(CC(C)C)CC2)N=5)=NC(=O)/C(C)=C\C=C\[C@H](C)[C@H](O)[C@@H](C)[C@@H](O)[C@@H](C)[C@H](OC(C)=O)[C@@H]1C | - | MIC | - | - | - | 2 isolates (HIS526TYR) | >5 µg/mL
CC(=O)c1ccc(N2CCC(C(=O)c3ccc4c(c3)OCO4)CC2)cc1 | - | MIC50 | turbidity | - | - | BioA overexpression strain | >50 µM
CC(=O)NC[C@H]1CN(c2ccc(N3CCOCC3)c(F)c2)C(=O)O1 | - | MIC | - | - | - | Strain 328 | 0.25 µg/mL
CC(=O)Nc1ccc(OCC(=O)N/N=C/c2ccco2)cc1 | 12.5 µg/mL | inhibition | - | - | - | H37Rv | 15%
C[N+]12CCCc3cc(CO)cc(c31)CCC2.[I-] | - | MIC bound | BACTEC | - | - | H37Rv | >12.5 µg/mL
CC(=O)Nc1ccc(/C=N/NC(N)=S)cc1 | - | MIC | - | - | - | Isolate E (drug-resistant) | 20 µg/mL
CO[C@H]1/C=C/O[C@@]2(C)Oc3c(C)c(O)c4c(=O)c(c5oc6cc(N7CCN(CC(C)C)CC7)cc(=O)c6nc5c4c3=C2O)NC(=O)/C(C)=C\C=C\[C@H](C)[C@H](O)[C@@H](C)[C@@H](O)[C@@H](C)[C@H](OC(C)=O)[C@@H]1C | - | MIC | - | - | - | 50 (rifampicin-resistant) | 0.125 µg/mL
Cc1ccn2c(C(=O)NCc3ccc(N4CCN(c5ccc(S(F)(F)(F)(F)F)cc5)CC4)cc3)c(C)nc2c1 | - | MIC90 | resazurin | - | - | H37Rv | <2 µM
CN1[C@@H](CC(=O)c2ccccc2)CCC[C@H]1C[C@H](O)c1ccccc1 | 128 µg/mL | inhibition | BACTEC | - | - | H37Rv | 49%
COc1c(N2CCNC(C)C2)c(F)cc2c(=O)c(C(=O)O)cn(C3CC3)c12 | - | MIC | - | - | - | Strain 35 | 8 µg/mL
CCOC(=O)Nc1cc(NC(c2ccccc2)c2ccccc2)c2[nH]c(=O)cnc2n1 | - | EC50 | - | - | - | H37Rv | <12.5 µg/mL
O=C(/C=C/c1ccccc1Cl)c1ccccc1 | - | MIC | MTT | 14 d | - | H37Rv | 32 µg/mL
O=C1C=C[C@@H](COC2OC(CO)C(O)C(O)C2O)O1 | - | MIC | - | - | - | CS-R | 6.3 µg/mL
CCOC(=O)Nc1cc(N)c([N+](=O)[O-])c(NC/C(C)=N/NC(N)=O)n1 | - | EC50 | - | - | - | H37Rv | >12.5 µg/mL
NCC[C@H](O)C(=O)N[C@@H]1C[C@H](N)[C@@H](O[C@H]2O[C@H](CN)[C@@H](O)[C@H](O)[C@H]2O)[C@H](O)[C@H]1O[C@H]1O[C@H](CO)[C@@H](O)[C@H](N)[C@H]1O | - | MIC | - | - | - | 90-0233 (isoniazid streptomycin-resistant) | 0.5 µg/mL
NC(=O)c1cnccn1 | - | MIC | - | - | - | TMC311 | >6400 µg/mL
CN(C)c1ccc(-c2nc(-c3ccccc3)c(-c3ccccc3)n2Cc2c(N)nc(N)[nH]c2=O)cc1 | 12.5 µg/mL | inhibition | BACTEC | - | - | H37Rv | 5%
COc1ccc(-c2cs/c(=N\NC(=O)COc3cnccn3)n2-c2ccc(Cl)cc2[N+](=O)[O-])cc1 | - | MIC | - | - | - | H37Rv | 2.7 µg/mL
Cc1nnc2nc(N)[nH]n2c1=O | - | MIC bound | resazurin | - | - | H37Rv | >6.25 µg/mL
CC1COc2c(N3CCN(C)CC3)c(F)cc3c(=O)c(C(=O)O)cn1c23 | - | MIC | BACTEC | - | - | 08-211 | 0.125 µg/mL
COc1ccc2c(NN)cc(C)nc2c1 | - | MIC | - | inside macrophages | - | H37Rv | 6.25 µg/mL
CC(=O)Nc1ccc(OCC(=O)N/N=C/c2ccc(Cl)cc2)cc1 | - | EC50 | - | - | - | H37Rv | >12.5 µg/mL
Cc1cc(N=Nc2ccc(-c3ccc(N=Nc4ccc(O)c(C(=O)O)c4)cc3)cc2)c(N)c(N=Nc2ccc(C(=O)Nc3ccc(S(=O)(=O)O)cc3)cc2)c1N | 12.5 µg/mL | inhibition | BACTEC | - | - | H37Rv | 1%
COc1ccc(C(=O)/C=C/c2ccc(F)cc2)cc1F | - | MIC | MTT | 21 d | - | H37Rv | 128 µg/mL
CCOC(=O)Nc1cc(N)c2c(n1)OCC(N=[N+]=[N-])=N2 | - | EC50 | - | - | - | H37Rv | >12.5 µg/mL
CO[C@H]1/C=C/O[C@@]2(C)Oc3c(C)c(O)c4c(O)c(c(/C=N/N5CCN(C)CC5)c(O)c4c3C2=O)NC(=O)/C(C)=C\C=C\[C@H](C)[C@H](O)[C@@H](C)[C@@H](O)[C@@H](C)[C@H](OC(C)=O)[C@@H]1C | - | MIC | - | - | - | 90-0145 (DRUG-SUS) | 0.4 µg/mL
N#C/C(=C1C=C(Br)/C(=N/O)C=C/1Cl)c1ccc(Cl)cc1 | 12.5 µg/mL | inhibition | BACTEC | - | - | H37Rv | 65%
CC(=O)Nc1ccc(OCC(=O)NN2C(=O)CSC2/C=C/c2ccccc2)cc1 | 12.5 µg/mL | inhibition | - | - | - | H37Rv | 0%
Cc1cn2c(C(=O)NCc3ccc(N4CCN(c5ccc(S(F)(F)(F)(F)F)cc5)CC4)c(F)c3)c(C)nc2s1 | - | MIC90 | resazurin | - | - | H37Rv | <2 µM
C/C(=C\CC1=C(O)c2ccccc2C(=O)C1=O)CO | 128 µg/mL | inhibition | BACTEC | - | - | H37Rv | 96%
CCc1nc2ccc(Cl)cn2c1C(=O)NCc1ccc(N2CCC(c3ccc(OC(F)(F)F)cc3)CC2)cc1 | - | MIC90 | resazurin | - | - | H37Rv | <2 µM
Cc1noc(-c2ccc(N3CCN(C(=O)c4cccc(Cl)c4)CC3)cc2)n1 | - | MIC50 | turbidity | - | - | BioA underexpression strain | >50 µM
COc1ccc(OC)c(-c2nc3c(N(CCc4ccccc4)Cc4ccccc4)nc(NC(=O)O)cc3[nH]2)c1 | - | EC50 | - | - | - | H37Rv | <12.5 µg/mL
CC1=C[C@@H]2O[C@H]3C[C@@H](OC(=O)/C=C/C=C/C(OCCC4=CC(=O)OC4)C(C)O)[C@@](C)([C@]2(CO)CC1)[C@@]31CO1 | - | MIC | BACTEC | - | - | H37Rv | ≥12.5 µg/mL
COc1cc(C2SCC(=O)N2NC(=O)COc2ccc(NC(C)=O)cc2)cc(OC)c1OC | - | EC50 | - | - | - | H37Rv | >12.5 µg/mL
O=C(/C=C/c1ccc(F)cc1Cl)c1ccc(F)cc1 | - | MIC | resazurin | 21 d | - | H37Rv | 32 µg/mL
N[C@@H](C[C@H]1CCC(=O)[C@@H]2O[C@H]12)C(=O)O | - | MIC bound | BACTEC | - | - | H37Rv | >12.5 µg/mL
CCOc1ccc2c(NN)ccnc2c1 | - | MIC | - | - | VERO | H37Rv | >12.5 µg/mL
COc1ccc2c(c1)C1CCN(C)CC1OC2=O | - | MIC bound | BACTEC | - | - | H37Rv | >12.5 µg/mL
CC(=O)c1ccc(N2CCN(C(=O)c3cccc(Cl)c3)CC2)cc1 | - | MIC90 | turbidity | - | - | Wild type without biotin | 48.8 µM
O=C(O)c1cc(N=Nc2ccc(/C=C/c3ccc(N=Nc4ccc(O)c(C(=O)O)c4)cc3S(=O)(=O)[O-])c(S(=O)(=O)[O-])c2)ccc1O.[Na+].[Na+] | - | MIC bound | BACTEC | - | - | H37Rv | >12.5 µg/mL
CCN(CC)c1ccc(/C=N/Nc2ccnc3cc(Cl)ccc23)cc1 | 12.5 µg/mL | inhibition | - | - | VERO | H37Rv | 100%
Cc1ccc2c(c1)C1(C)C=C(CN3CCN(C)CC3)C(=O)CC1O2 | - | MIC | BACTEC | - | - | H37Rv | ≥12.5 µg/mL
Cc1nc2ccc(Cl)cn2c1C(=O)NCc1ccc(N2CCOCC2)c(F)c1 | - | MIC90 | resazurin | - | - | H37Rv | <2 µM
CCOc1ccc2nc(NC(=O)c3c/c(=N\NC(=O)C[N+](C)(C)C)c4ccc(O)cc4o3)sc2c1.[Cl-] | - | MIC | BACTEC | - | - | H37Rv | 12.5 µg/mL
Cc1cn2c(C(=O)NCc3ccc(N4CCN(c5ccc(C(F)(F)F)cn5)CC4)c(F)c3)c(C)nc2s1 | - | MIC90 | resazurin | - | - | H37Rv | <2 µM